Taken from: PubChem BioAssay AID624099 (ICCB-Longwood, 2012)
Shown is an unselected part of about 21,000 reagents. 497 of all reagents (2.4%) were called active. 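Higher z means weaker E2 silencing; only reporter increases were scored, and knock-downs that hurt cell survival may mask genuine repressor factors.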 Entries without a mark were called inactive.

Screen: 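Knock-downs relieving repression by E2 of an HPV18 LCR luciferase reporter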 (primary screen)
Cell system: human C33A cervical carcinoma cells (HPV-negative) stably expressing BPV1 E2 and an HPV18 LCR luciferase reporter
Reagents: siRNA pool against human genes, 40 nM
Timing: 72 h
Measured: 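HPV18 LCR reporter light per well, converted to plate-wise z-scores that exclude control wells, and averaged over triplicate plates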
Scale: mean z-score and z-score: higher = stronger reporter signal, weaker E2 silencing
Active means: 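Mean z ≥ 2 together with z ≥ 2 in two or more of the three replicates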

{"gene symbol": "GLOD5", "mean z-score": -0.18, "z-score, replicate A": -0.3, "z-score, replicate B": 0.02, "z-score, replicate C": -0.25}
{"gene symbol": "DCTD", "mean z-score": -0.45, "z-score, replicate A": -0.31, "z-score, replicate B": -0.62, "z-score, replicate C": -0.41}
{"gene symbol": "ZNF526", "mean z-score": 0.87, "z-score, replicate A": 0.98, "z-score, replicate B": 1.09, "z-score, replicate C": 0.54}
{"gene symbol": "LOC401155 (retired record)", "mean z-score": 0.29, "z-score, replicate A": 0.38, "z-score, replicate B": 0, "z-score, replicate C": 0.49}
{"gene symbol": "CCZ1", "mean z-score": 1.72, "z-score, replicate A": 1.49, "z-score, replicate B": 1.91, "z-score, replicate C": 1.75}
{"gene symbol": "SUGP1", "mean z-score": -1.53, "z-score, replicate A": -1.58, "z-score, replicate B": -2.16, "z-score, replicate C": -0.85}
{"gene symbol": "GPC3", "mean z-score": -0.06, "z-score, replicate A": -0.2, "z-score, replicate B": 0.16, "z-score, replicate C": -0.15}
{"gene symbol": "AHSA2P", "mean z-score": 1.43, "z-score, replicate A": 1.47, "z-score, replicate B": 1.39, "z-score, replicate C": 1.42}
{"gene symbol": "PPARGC1B", "mean z-score": 0.26, "z-score, replicate A": 0.21, "z-score, replicate B": 0.28, "z-score, replicate C": 0.29}
{"gene symbol": "ESYT1", "mean z-score": 0.21, "z-score, replicate A": 0, "z-score, replicate B": -0.04, "z-score, replicate C": 0.67}
{"gene symbol": "CDK1", "mean z-score": -1.52, "z-score, replicate A": -2.17, "z-score, replicate B": -1.65, "z-score, replicate C": -0.76}
{"gene symbol": "CLEC4D", "mean z-score": 0.46, "z-score, replicate A": 0.65, "z-score, replicate B": 0.36, "z-score, replicate C": 0.37}

2 entries from above in another layout.
{"gene symbol":"SUGP1","mean z-score":-1.53,"z-score, replicate A":-1.58,"z-score, replicate B":-2.16,"z-score, replicate C":-0.85}
{"gene symbol":"GPC3","mean z-score":-0.06,"z-score, replicate A":-0.2,"z-score, replicate B":0.16,"z-score, replicate C":-0.15}
